A mixed list of measured activities; the numbers were collected in NIAID ChemDB.

Shared fields: whole-cell or culture tests; agent: Human cytomegalovirus; cell line: HEL; read-out: EC50

a–b is a range or a potency band. Neighbouring rows are from separate reports. ECn is the concentration giving n% inhibition of infection, replication or growth. Blank or dashed fields: not listed here.

structure	strain	read by	value
N#CC1C(c2ccccc2)Nc2sccc2S1(=O)=O	DAVIS	cytopathic effect	50 µg/mL
Cc1cn(C(CF)CCCO)c(=O)[nH]c1=O	AD169	cytopathic effect	>50 µg/mL
CCCCCCCCc1cc2cn(CCC(C)C)c(=O)nc2o1	AD169	plaque count	>200 µM
O=c1ccn([C@@H]2O[C@H](/C=C/C=C(Br)Br)[C@@H](O)[C@H]2O)c(=O)[nH]1	AD169		>120 µM
Nc1nc2c(ncn2CCCCO)c(=O)[nH]1	AD169	antigen	50 µM
C[C@@H](NC(=O)C1(Cc2ccccc2)CCN1C(=O)OCc1ccccc1)C(=O)OC(C)(C)C	DAVIS	cytopathic effect	3.2 µM
O=C1c2ccccc2C(=O)N1CCC1C2CC3CC(C2)CC1C3	DAVIS	plaque count	>100 µg/mL
CC[Si]1(C(C)C)O[C@H]2[C@@H](O)[C@H](c3ccccc3)O[C@@H]2CO[Si](C(C)C)(C(C)C)O1	DAVID	plaque count	2 µg/mL
Nc1nccc2c1ncn2C[C@@H](CO)OCP(=O)(O)O	DAVIS	plaque count	0.12 µM
CC(=O)O[C@@H]1CC[C@H](O)[C@@]2(C)CC/C(C(C)C)=C\C=C(/C)CCC1O2			8 µg/mL
C[C@H](Cn1nnc2c(=O)[nH]c(N)nc21)OCP(=O)(O)O	DAVIS	cytopathic effect	>50 µg/mL
Cn1cc(C(=O)O)c(=O)c2cc(N)c(N3CCN(c4nccs4)CC3)cc21	DAVIS	plaque count	1.45 µg/mL
O=c1[nH]c(=O)n([C@@H]2C[C@H](CO)C[C@H]2CO)cc1I	AD169		>100 µg/mL
CO[C@H]1[C@H]2O[Si](C(C)C)(C(C)C)O[Si](C(C)C)(C(C)C)OC[C@@H]2O[C@@H]1c1ccccc1	AD169	plaque count	1.3 µg/mL
CCCCCCCC(=O)NCC#Cc1cn([C@H]2C[C@H](O)[C@@H](COP(=O)(N[C@@H](C)C(=O)OCc3ccccc3)Oc3ccccc3)O2)c(=O)[nH]c1=O	AD169	cytopathic effect	>100 µM
Nc1nc2c(ncn2COC(CO)CO)c(=O)[nH]1	CMV (AD 169)	plaque count	7.5 µM
N#CC1C(c2ccc(Cl)cc2)Nc2ccccc2S1(=O)=O	AD169	cytopathic effect	4.6 µg/mL
Nc1ncnc2c1ncn2CCCC(O)CF	DAVIS	cytopathic effect	>50 µg/mL
Cc1ccn2c(CSCc3ccccc3)c(-c3ccc4ccccc4c3)nc2c1	DAVIS	cytopathic effect	1.2 µg/mL
OC[C@H]1O[C@H](c2ccc(F)cc2F)C[C@@H]1O	DAVIS	cytopathic effect	>200 µM
Cc1c(Br)cc(Br)c2ncc(CSCc3ccc(F)cc3)n12	AD169	plaque count	>5 µg/mL
O=C1NC23CC4CC(C2)C2C(C4)C3C2(O)c2ccccc21	AD169	plaque count	>100 µg/mL
Nc1nccc2c1ncn2[C@@H]1C[C@H](CO)[C@@H](O)[C@H]1O	AD169	cytopathic effect	7 µg/mL
CC(C)(C)[Si](C)(C)OC[C@H]1O[C@@H](n2ccc3nc(CN)cn3c2=O)[C@H](O[Si](C)(C)C(C)(C)C)[C@@H]1O[Si](C)(C)C(C)(C)C	DAVIS	cytopathic effect	8.9 µM
Nc1nc(N)c2nnn(C[C@@H](CO)OCP(=O)(O)O)c2n1	AD169	cytopathic effect	>100 µg/mL
Cc1c(S(=O)(=O)c2ccc(Cl)cc2)c(NC(=O)C(F)(F)F)n(Cc2ccc(Cl)cc2)c1C	DAVIS	cytopathic effect	0.6 µg/mL
Nc1ccn(C[C@@H](CO)OCP(=O)(O)O)c(=O)n1	DAVIS	cytopathic effect	0.21 µM
O=C1c2ccccc2C(=O)N1CCC12CC3CC(CC(C3)C1)C2	AD169	plaque count	>20 µg/mL
Nc1cc2c(=O)c(C(=O)O)cn(C3CC3)c2cc1N1CCN(c2cccc(C(F)(F)F)c2)CC1	DAVIS	plaque count	0.82 µg/mL
CCCCCCCc1cc2cnc(=O)[nH]c2o1	AD169	cytopathic effect	>400 µM
OC[C@H]1O[C@H](c2cc(F)c(F)cc2F)C[C@@H]1O	AD169	cytopathic effect	>200 µM
CCCCCCCC#Cc1c[nH]c(=O)[nH]c1=O	AD169	cytopathic effect	>80 µM
Cc1c(Br)cc(Br)c2ncc(CSCc3ccc(Cl)cc3Cl)n12	DAVIS	plaque count	>5 µg/mL
N#Cc1cc([C@H]2C[C@H](O)[C@@H](CO)O2)c(F)cc1F	DAVIS	cytopathic effect	>200 µM
Cc1ccn2c(CSCc3ccccc3)c(-c3ccncc3)nc2c1	DAVIS	cytopathic effect	>5 µg/mL
CC(C)(C)[Si](OC[C@H]1C[C@@H](Cn2cnc3c(N)ncnc32)c2cn(Cc3ccccc3)nc21)(c1ccccc1)c1ccccc1	DAVIS		0.5 µM
OC[C@H]1CC(n2cnc3c(NC4CC4)ncnc32)C[C@@H]1CO	DAVIS		>100 µg/mL
Cc1cc(Br)cn2c(CSCc3ccccc3)cnc12	DAVIS	cytopathic effect	>20 µg/mL
Cc1c(Br)cc(Br)c2ncc(CSCc3ccco3)n12	DAVIS	plaque count	4 µg/mL
Nc1nc2c(ncn2COCCO)c(=O)[nH]1	AD169	plaque count / crystal violet	13.2 µg/mL
CCCCC#Cc1c[nH]c(=O)[nH]c1=O	AD169	cytopathic effect	>400 µM
CCCCCCCC/C=C/CCCCCCCC(=O)OCC(CO)OCn1cnc2c(=O)[nH]c(N)nc21	AD169	cytopathic effect	4.5 µM
CCCCCCc1cc2cnc(OC3CCCCC3)nc2o1	DAVIS	plaque count	>5 µM
Cc1c(Br)cc(Br)c2ncc(CSCc3ccccc3Cl)n12	AD169	plaque count	>5 µg/mL
Cc1ccn2c(CSCCc3ccccc3)c(-c3cccs3)nc2c1	AD169	cytopathic effect	1.1 µg/mL
Cn1cc(C(=O)O)c(=O)c2cc(N)c(N3CCN(c4cccc(C(F)(F)F)c4)CC3)cc21	AD169	plaque count	0.86 µg/mL
CCCCCCc1cc2cnc(OC3CCCC3)nc2o1	DAVIS	plaque count	20 µM
Oc1ccc(-c2nc(-c3ccc(F)cc3)c(-c3ccncc3)[nH]2)cc1	TOWNE	plaque count	10–100 µM
O=c1[nH]c(=O)n(C2C[C@H](CO)[C@@H](CO)C2)cc1I	AD169		>100 µg/mL
C[C@@H](NC(=O)C1(Cc2ccccc2)CCN1C(=O)OCc1ccccc1)C(N)=O	AD169	cytopathic effect	>400 µM
CCCCCC#Cc1c[nH]c(=O)[nH]c1=O	AD169	cytopathic effect	>400 µM
Cc1cccn2c(CSCc3ccccc3)cnc12	DAVIS	cytopathic effect	0.12 µg/mL
CC#CC=C[C@H]1O[C@@H](n2cnc3c(N)ncnc32)[C@H](O)[C@@H]1O	DAVIS		30 µM
Nc1ncnc2c1ncn2[C@@H]1C=C(CO)[C@@H](O)[C@H]1O	DAVIS	plaque count	0.15 µg/mL
O=C1c2ccccc2C(=O)N1C12CC3CC(CC(C(=O)O)(C3)C1)C2	AD169	plaque count	>100 µg/mL
Cc1ccccc1CSCc1cnc2c(Br)cc(Br)c(C)n12	AD169	plaque count	>50 µg/mL
Nc1ccn(C(CF)CCCO)c(=O)n1	DAVIS	cytopathic effect	>50 µg/mL
Nc1ccn(C[C@@H](CO)OCP(=O)(O)O)c(=O)n1	Ganciclovir-resistant	plaque count	3.9 µM
O=C1c2ccccc2C(=O)N1CC12CC3CC(CC(O)(C3)C1)C2	AD169	plaque count	>20 µg/mL
Nc1nc2c(ncn2[C@@H]2C[C@H](CO)[C@H]2CO)c(=O)[nH]1	AD169	plaque count / crystal violet	0.19 µg/mL
O=C1c2ccccc2[C@@]2(O)C3C4C[C@H]5CC(C[C@H]3C5)C4N12	AD169	plaque count	13 µg/mL
CCCCCCCCc1cc2cn(C3CCCC3)c(=O)nc2o1	AD169	plaque count	>20 µM
Cc1c(Br)cc(Br)c2ncc(CSCc3ccccc3F)n12	DAVIS	plaque count	>5 µg/mL
O=C1c2ccccc2C(=O)N1CCCC1C2CC3CC(C2)CC1C3	DAVIS	plaque count	≥4 µg/mL
O=c1[nH]c(=O)n([C@H]2C[C@H](O)[C@@H](CO)O2)cc1/C=C/Br	AD169	cytopathic effect	>50 µM
Nc1nc2c(ncn2CC[C@@H](O)CO)c(=O)[nH]1	9 isolates	antigen	220 µM
NC(=O)c1c(Cl)c(-c2cccnc2)n2c1CCCC2	Ganciclovir-resistant	plaque count	0.16 µM
N#CC1C(c2ccc(Cl)cc2)Nc2sccc2S1(=O)=O	DAVIS	cytopathic effect	9 µg/mL
Cc1c(Br)cc(Br)c2ncc(CSCc3ccccc3)n12	AD169	plaque count	>50 µg/mL

The first 10 rows once more:

structure,strain,read by,value
N#CC1C(c2ccccc2)Nc2sccc2S1(=O)=O,DAVIS,cytopathic effect,50 µg/mL
Cc1cn(C(CF)CCCO)c(=O)[nH]c1=O,AD169,cytopathic effect,>50 µg/mL
CCCCCCCCc1cc2cn(CCC(C)C)c(=O)nc2o1,AD169,plaque count,>200 µM
O=c1ccn([C@@H]2O[C@H](/C=C/C=C(Br)Br)[C@@H](O)[C@H]2O)c(=O)[nH]1,AD169,,>120 µM
Nc1nc2c(ncn2CCCCO)c(=O)[nH]1,AD169,antigen,50 µM
C[C@@H](NC(=O)C1(Cc2ccccc2)CCN1C(=O)OCc1ccccc1)C(=O)OC(C)(C)C,DAVIS,cytopathic effect,3.2 µM
O=C1c2ccccc2C(=O)N1CCC1C2CC3CC(C2)CC1C3,DAVIS,plaque count,>100 µg/mL
CC[Si]1(C(C)C)O[C@H]2[C@@H](O)[C@H](c3ccccc3)O[C@@H]2CO[Si](C(C)C)(C(C)C)O1,DAVID,plaque count,2 µg/mL
Nc1nccc2c1ncn2C[C@@H](CO)OCP(=O)(O)O,DAVIS,plaque count,0.12 µM
CC(=O)O[C@@H]1CC[C@H](O)[C@@]2(C)CC/C(C(C)C)=C\C=C(/C)CCC1O2,,,8 µg/mL